A mixed list of measured activities; the numbers were collected in NIAID ChemDB.

Shared fields: whole-cell or culture tests; organism: Hepatitis C virus; endpoint: EC50

An empty or dashed field is not shown. a–b is a range or a potency band. ECn is the concentration giving n% inhibition of infection, replication or growth. Neighbouring rows are from separate reports.

Cc1ccc(NC(=O)c2ccco2)cc1-c1ccc(C(=O)Nc2ccc(CN3CCS(=O)(=O)CC3)cc2)cc1 ; strain or isolate: 1b ; read by: replicon ; result: 0.6 µM
CC(C)(C)OC(=O)N[C@@H]1CCCCC/C=C\[C@@H]2C[C@@]2(C(=O)NS(=O)(=O)C2CC2)NC(=O)[C@@H]2C[C@@H](OC(=O)N3Cc4cccc(F)c4C3)CN2C1=O ; strain or isolate: A156S ; read by: replicon ; setting: genotype 1b ; result: 0.002 µM
CS(=O)(=O)NC(=O)c1c(-c2ccc[nH]c2=O)c2c3occc3c(F)cc2n1Cc1ccnc(N)c1 ; read by: replicon ; result: <0.5 µM
Cc1ccc(C(=O)NC2CC2)cc1-c1ccc(C(=O)Nc2ccc(CN3CCS(=O)(=O)CC3)cc2)cc1 ; strain or isolate: 1b ; read by: replicon ; result: 2.6 µM
NS(=O)(=O)CCNc1nc(NCC(F)(F)F)c2nc(-c3ccc(F)cc3)ccc2n1 ; read by: replicon ; result: <0.1 µM
Cc1ccc(C(=O)Nc2ccc(N3CCOCC3)cc2)cc1-c1ccc(C(=O)Nc2ccc(CCN3CCS(=O)(=O)CC3)cc2)cc1 ; strain or isolate: 1b ; read by: replicon ; result: >25 µM
CS(=O)(=O)NC(=O)c1c(-c2ccc[nH]c2=O)c2c3occc3c(F)cc2n1Cc1cc(Cl)nc2ccccc12 ; read by: replicon ; result: 0.5–1.5 µM
Cc1cccc(N2C(=O)/C(=C\c3cc(-c4ccsc4)cs3)C(=O)N(c3ccc(F)cc3)C2=S)c1 ; read by: replicon ; result: 5.6 µM
C#C[C@@]1(O)[C@H](O)[C@@H](CO)O[C@H]1n1ccc2c(N)ncnc21 ; read by: luciferase / replicon ; result: 0.1 µM
COc1cccc(N2C(=O)/C(=C/c3ccc(-c4ccccc4)s3)C(=O)N(c3ccc(Cl)cc3)C2=S)c1 ; read by: replicon ; result: 5.1 µM
CS(=O)(=O)NC(=O)c1c(-c2ccc[nH]c2=O)c2c3c(ccc2n1Cc1ccccc1F)CCO3 ; read by: replicon ; result: <0.5 µM
CC(C)C(=O)N1C(=O)C2(CCC2)[C@@H]2[C@@H]1CCN2C(=O)[C@@H](NC(=O)NC1CCCC1)C(C)C ; strain or isolate: 1b ; read by: luciferase / reporter gene ; result: 0.301 µM
CC(C)(C)C(=O)SCCOP(=O)(OCCSC(=O)C(C)(C)C)OC[C@H]1O[C@@H]([n+]2c(=O)[nH]cc3[nH]ccc32)[C@H](O)[C@@H]1O ; read by: replicon ; result: 60 µM
CS(=O)(=O)CCNc1nc(NCc2ccc(F)cc2)nc2ccc(-c3cnc(N)s3)nc12 ; read by: replicon ; result: <0.1 µM
COc1ccc(NC(=O)C2CC2)cc1-c1ccc(C(=O)Nc2ccc(CN3CCS(=O)(=O)CC3)cc2)cc1 ; strain or isolate: 1b ; read by: replicon ; result: 0.7 µM
O=C(O)/C=C/c1ccc(NC(=O)C2(NC(=O)c3ccc4c(c3)nc(-c3ccoc3)n4C3CCCCC3)CCCC2)cc1 ; result: 0.89 µM
CC(C)CCn1c(=O)c(C2=NS(=O)(=O)c3ccccc3N2)c(O)c2ccccc21 ; strain or isolate: 1b ; read by: luciferase / reporter gene ; result: 0.0035 µM
Cc1[nH]c2ccc3c(c(-c4ccccc4F)c(C(=O)O)n3Cc3ccccc3)c2c1C ; read by: replicon ; result: >1.5 µM
Cc1ccc(C(=O)NCCC(C)C)cc1-c1ccc(C(=O)Nc2ccc(CN3CCS(=O)(=O)CC3)cc2)cc1 ; strain or isolate: 1b ; read by: replicon ; result: 0.9 µM
Cc1nc(N)c2ncn([C@H]3O[C@@H](CO)[C@H](O)[C@@H]3O)c2n1 ; result: 0.23 µM
CCCS(=O)(=O)N1CCN(Cc2ccc(NC(=O)c3ccc(-c4cc(NC(=O)C5CC5)ccc4OC(F)(F)F)cc3)cc2)CC1 ; strain or isolate: 1b ; read by: replicon ; result: 0.006 µM
COc1c(-c2ccc3cc(NS(C)(=O)=O)ccc3c2)cc(-n2ccc(=O)[nH]c2=O)cc1C(C)(C)C ; strain or isolate: genotype 1a H77 ; read by: luciferase ; setting: 40% human plasma ; result: 0.099 µM
CN(CC(F)(F)F)c1nc(NCc2ccc(S(N)(=O)=O)cc2)nc2ccc(-c3ccc(F)cc3)nc12 ; read by: replicon ; result: <0.1 µM
CCCCCCCCCCCCCCCCCCOCCOP(=O)(O)CO[C@H](COC)Cn1cnc2c(N)ncnc21 ; strain or isolate: K50N mutant ; result: 7.07 µM
CCS(=O)(=O)C12CC1c1ccccc1-c1c(C3CCCCC3)c3ccc(C(=O)NS(=O)(=O)N(C)C)cc3n1C2 ; result: 0.02–1 µM
OC[C@@H]1C[C@@H](O)[C@H](n2cnc3c(-c4ccccc4)ncnc32)O1 ; read by: replicon ; result: >10 µM
Nc1ccccc1S(=O)(=O)NC(=O)c1c(-c2ccc[nH]c2=O)c2c3occc3c(F)cc2n1Cc1cc2ccccc2nc1Cl ; read by: replicon ; result: <0.5 µM
Cc1ccc(C(=O)Nc2ccc(N3CCOCC3)cc2)cc1-c1ccc(C(=O)Nc2ccc(CC3CCN(S(C)(=O)=O)CC3)cc2)cc1 ; strain or isolate: 1b ; read by: replicon ; result: 2.3 µM
OCc1ncnc2c1ncn2[C@@H]1O[C@H](CO)C[C@H]1O ; read by: replicon ; result: >10 µM
C[C@H](O)C(=O)Nc1ccc(-c2ccc3nc(NCc4ccc(S(N)(=O)=O)cc4)nc(NCC(F)(F)F)c3n2)cc1Cl ; read by: replicon ; result: <0.1 µM
CCc1ncnc2c1ncn2[C@@H]1O[C@H](CO)C[C@H]1O ; read by: replicon ; result: >10 µM
CCCCCOc1ccc(NC(=S)NC(=O)c2cccnc2)cc1C(F)(F)F ; strain or isolate: 1b ; read by: luciferase / reporter gene ; result: 0.1168 µM
COc1ccc2c(c1)[C@@H]1C[C@]1(C(=O)N1[C@@H]3CC[C@H]1CN(C)C3)Cn1c-2c(C2CCCCC2)c2ccc(C(=O)N(C)S(=O)(=O)N(C)C)nc21 ; strain or isolate: 1b ; read by: replicon ; result: 0.5–10 µM
C=C[C@@H]1C[C@]1(NC(=O)[C@@H]1C[C@@H]2CN1C(=O)[C@H](C(C)(C)C)NC(=O)C[C@@H]1C[C@H]1CCCCCc1nc3ccc(OC)cc3nc1O2)C(=O)NS(=O)(=O)C1CC1 ; result: 0.002 µM
CCOc1cc(O[C@@H]2C[C@H]3C(=O)N[C@]4(C(=O)NS(=O)OC5CC5)C[C@H]4/C=C\CCCCN(C)C(=O)[C@@H]3C2)c2ccc(OC)c(C)c2n1 ; strain or isolate: 1b ; read by: replicon ; result: 0.0043 µM
CCOc1nc(NCc2ccc(F)cc2)nc2ccc(-c3cnc(N)cn3)nc12 ; read by: replicon ; result: <0.1 µM
NS(=O)(=O)c1ccc(CNc2nc(NCC(F)(F)F)c3nc(-c4ccc(NC(=O)C5CC5)nc4)ccc3n2)cc1 ; strain or isolate: 1b ; read by: luciferase ; result: 0.003 µM
COc1ccc2c(c1)C=C(C(=O)N1C[C@@H](C)N(C)[C@@H](C)C1)Cn1c-2c(C2CCCCC2)c2ccc(C(=O)NS(=O)(=O)N(C)C)nc21 ; strain or isolate: 1b ; read by: replicon ; result: 0.001–0.5 µM
CCC[C@H](NC(=O)[C@@H]1C[C@@H](Oc2nc(-c3ccccn3)nc3ccsc23)CN1C(=O)[C@@H](NC(=O)NC(C)(C)C)C(C)(C)C)C(=O)C(=O)NC1CC1 ; strain or isolate: 1b ; read by: replicon ; result: <1 µM

For reference, 4 entries again:

smiles,strain or isolate,read by,setting,result
CS(=O)(=O)CCNc1nc(NCc2ccc(F)cc2)nc2ccc(-c3cnc(N)s3)nc12,-,replicon,-,<0.1 µM
CS(=O)(=O)NC(=O)c1c(-c2ccc[nH]c2=O)c2c3occc3c(F)cc2n1Cc1ccnc(N)c1,-,replicon,-,<0.5 µM
Nc1ccccc1S(=O)(=O)NC(=O)c1c(-c2ccc[nH]c2=O)c2c3occc3c(F)cc2n1Cc1cc2ccccc2nc1Cl,-,replicon,-,<0.5 µM
COc1cccc(N2C(=O)/C(=C/c3ccc(-c4ccccc4)s3)C(=O)N(c3ccc(Cl)cc3)C2=S)c1,-,replicon,-,5.1 µM